Measured values: article PMC9573667, “Efficient Oxidative Dearomatisations of Substituted Phenols Using Hypervalent Iodine (III) Reagents and Antiprotozoal Evaluation of the Resulting Cyclohexadienones against T. b. rhodesiense and P. falciparum Strain NF54” (Molecules, 2022)
Several values for one entry are separate records, joined by “and”; a condition that tells them apart may be missing. Identical values can stand only once.

How the values were obtained:
[1] = system: P. falciparum, strain NF54, erythrocytic stages; test: In vitro growth inhibition assay of Plasmodium falciparum NF54 ([3H]-hypoxanthine incorporation); format: cell-based; details: L6 vs P. falciparum NF54
Description: Antimalarial activity was determined in vitro against the erythrocytic stages of P. falciparum using the drug-sensitive strain NF54. Parasite proliferation was assessed by incorporation of [^3H]-hypoxanthine using a modified version of [75]; for details, please refer to the Supplementary Materials. The positive control was chloroquine.
1. Experimental of biological testing
1.1 In vitro growth inhibition assay of Plasmodium falciparum NF54
Plasmodium falciparum, strain NF54, erythrocytic stages, and the standard drug, chloroquine, were used for the assay. The parasite cultures incubated in RPMI 1640 medium with 5% AlbuMAXTM (without hypoxanthine) were exposed to serial drug dilutions in microtiter plates. After 48 h of incubation at 37 °C in a reduced oxygen atmosphere, 0.5 μCi [3H]-hypoxanthine was added to each well of the plate. Cultures were incubated for a further 24 h before they were harvested onto glass-fiber filters and washed with distilled water. The radioactivity was counted using a BetaplateTM liquid scintillation […]
counter (Wallac, Zurich). […]
concentration and expressed as percentage of the untreated controls. IC50 values were calculated from the sigmoidal inhibition curves using Microsoft Excel. Chloroquine was used as control. […]

[2] = system: T. brucei rhodesiense, strain STIB900 trypomastigote forms; test: In vitro growth inhibition assay of Trypanosoma brucei rhodesiense STIB900 (Alamar blue); format: cell-based; details: L6 vs T. b. rhodesiense STIB900
Description: Trypanocidal activity was determined in vitro against axenically grown bloodstream-forms of T. b. rhodesiense STIB900 as described in Refs. [76, 77] and detailed in the Supplementary Materials. Parasite proliferation was assessed via fluorescence of the redox-sensitive dye resazurin (Alamar blue). The drug melarsoprol was used as the positive control. […]
1.2 In vitro growth inhibition assay of Trypanosoma brucei rhodesiense
Trypanosoma brucei rhodesiense, STIB 900 strain, and the standard drug, melarsoprol, were used for the assay. Minimum Essential Medium (50 μL) supplemented with 25 mM HEPES, 1g/L additional glucose, 1% MEM non-essential amino acids (100x), 0.2 mM 2-mercaptoethanol, 1 mM Na-pyruvate and 15% heat-inactivated horse serum was added to each well of a 96-well microtiter plate. Serial drug dilutions of 11 three-fold dilution steps covering a range from 100 to 0.002 μg/mL were prepared. Then […]
mL double-distilled water) was then added to each well and incubation continued for a further 2–4 h.
Then, the plates were read with a Spectramax Gemini XS microplate fluorometer (Molecular Devices Cooperation, Sunnyvale, CA, USA) using an excitation wavelength of 536 nm and an emission wavelength of 588 nm. The IC50 values were calculated from the sigmoidal inhibition curves using the microplate reader software Softmax Pro (Molecular Devices Cooperation, Sunnyvale, CA, USA).
Melarsoprol was used as control. […]

Row | SMILES | SI (IC50 in L6 cells/IC50 in P. falciparum) [1] | SI (IC50 in L6 cells/IC50 in T. b. rhodesiense) [2]
1 | COC(=O)CC1(O)C=CC(=O)C=C1 [Compound 4a, Methyl 2-(1-hydroxy-4-oxocyclohexa-2,5-dien-1-yl)acetate] | 0.40 | 0.66
2 | COC(=O)CC1(O)C=CC(=O)C(F)=C1 (stereo not shown) [Compound 4b, Methyl 2-(3-fluoro-1-hydroxy-4-oxocyclohexa-2,5-dien-1-yl)acetate] | 1.02 | 8.42
3 | COC(=O)CC1(O)C=CC(=O)C(Cl)=C1 (stereo not shown) [Compound 4c, Methyl 2-(3-chloro-1-hydroxy-4-oxocyclohexa-2,5-dien-1-yl)acetate] | 0.53 | 9.36
4 | COC(=O)CC1(O)C=CC(=O)C(Br)=C1 (stereo not shown) [Compound 4d, Methyl 2-(3-bromo-1-hydroxy-4-oxocyclohexa-2,5-dien-1-yl)acetate] | 0.71 | 5.09
5 | COC(=O)CC1(O)C=C(Cl)C(=O)C(Cl)=C1 [Compound 4e, Methyl 2-(3,5-dichloro-1-hydroxy-4-oxocyclohexa-2,5-dien-1-yl)acetate] | 0.47 | 11.6
6 | COC(=O)CC1(O)C=C(Br)C(=O)C(Br)=C1 [Compound 4f, Methyl 2-(3,5-dibromo-1-hydroxy-4-oxocyclohexa-2,5-dien-1-yl)acetate] | 0.51 | 8.29
7 | COC(=O)CCC1(O)C=CC(=O)C=C1 [Compound 4g, Methyl 3-(1-hydroxy-4-oxocyclohexa-2,5-dien-1-yl)propanoate] | > 12 and >12.3 | >20.5
8 | O=C1C=CC2(C=C1)CCC(=O)O2 [Compound 4h, 1-Oxaspiro [4.5]deca-6,9-diene-2,8-dione] | 0.15 | 0.09
9 | COC(=O)/C=C/C1(O)C=CC(=O)C=C1 [Compound 4i, Methyl (2E)-3-(1-hydroxy-4-oxocyclohexa-2,5-dien-1-yl)prop-2-enoate] | 0.87 | 5.27
10 | O=C1C=CC(=O)c2cc(F)ccc21 [Compound 5d, 6-Fluoro-1,4-dihydronaphthalene-1,4-dione] | 3.21 | 23.33
11 | O=C1C=CC(=O)c2cc(F)c(F)cc21 [Compound 5e, 6,7-Difluoro-1,4-dihydronaphthalene-1,4-dione] | 6.97 | 28.92
